Measured values from several laboratories, pooled; numbers as filed in NIAID ChemDB.

Shared fields: whole-cell or culture tests; agent: HIV-1; read by: cytopathic effect / XTT; read-out: EC50

Lines come from different laboratories, so protocols vary. An empty or dashed field is not shown. ECn is the concentration giving n% inhibition of infection, replication or growth.

SMILES,changes,strain,conditions,cells,result
CC[C@H](C)[C@H](NC(=O)[C@H](OCc1ccccc1)[C@H](O)[C@@H](O)[C@@H](OCc1ccccc1)C(=O)N[C@H](C(=O)NC)[C@@H](C)CC)C(=O)NC,,,,MT-4,1 µM
NC(=O)c1ncn([C@@H]2O[C@H](CO)[C@@H](O)[C@H]2O)c1N,,IIIB,,MT-2,500 µM
CCSCCCCCCCCCCCC(=O)O,,IIIB,,CEM + CEM-SS,9.37 ± 7.1 µM
O=C(NC1c2ccccc2CC1O)[C@H](OCc1ccccc1)[C@H](O)[C@@H](O)[C@@H](OCc1ccccc1)C(=O)N[C@H]1c2ccccc2CC1O,,,,MT-4,0.05 µM
Nc1cc(S(N)(=O)=O)ccc1SSc1ccc(S(N)(=O)=O)cc1N,,RF,,CEM + CEM-SS,4.9 µM
O=C(N[C@H]1c2ccccc2C[C@H]1O)[C@H](OCc1ccc(F)cc1F)[C@H](O)[C@@H](O)[C@@H](OCc1ccc(F)cc1F)C(=O)N[C@H]1c2ccccc2C[C@H]1O,,,,MT-4,0.1 µM
CNCCSS(=O)(=O)CCNC,,RF,,CEM + CEM-SS,247.3 µM
CCCc1cc(=O)oc2c3c(c4c(c12)OC(C)(C)C=C4)O[C@H](C)[C@@H](C)[C@@H]3O,,IIIB,,Macrophage,0.05 µM
C[C@H](Cn1cnc2c(N)ncnc21)OCP(=O)(O)O,,IIIB,,MT-2,6.3 µM
NS(=O)(=O)c1ccc(NC(=O)c2cccc(SSc3cccc(C(=O)Nc4ccc(S(N)(=O)=O)cc4)c3)c2)cc1,,,,CEM,>100 µM
COc1cc(SSc2cc(OC)cc([N+](=O)[O-])c2N)c(N)c([N+](=O)[O-])c1,,RF,,CEM + CEM-SS,0.47 µM
O=C(O)c1ccccc1SSc1ccccc1C(=O)O,,,,CEM,>100 µM
CNC(=O)[C@@H](NC(=O)[C@H](OCc1ccccc1)[C@H](O)[C@@H](O)[C@@H](OCc1ccccc1)C(=O)N[C@H]1c2ccccc2C[C@H]1O)C(C)C,,,,MT-4,0.1 µM
Nc1ccn([C@H]2CC[C@@H](CO)O2)c(=O)n1,,,,ATH8,0.24 µg/mL
O=S1(c2ccccc2)=NC(=S)Nc2ccccc21,,IIIB,,U-937,5.04 µM
O=C(NC1CCc2ccccc21)[C@H](OCc1cccc(F)c1)[C@H](O)[C@@H](O)[C@@H](OCc1cccc(F)c1)C(=O)N[C@H]1CCc2ccccc21,,,,MT-4,0.5 µM
O=C(O)c1cccc(SS(=O)(=O)c2cccc(C(=O)O)c2)c1,,RF,,CEM + CEM-SS,9.4 µM
Fc1cccc(F)c1C1SCc2nc3ccccc3n21,RT-Y181C,IIIB,,CEM,13.87 µM
Cc1ccnc2c1NC(=O)c1cccnc1N2C1CC1,,IIIB,,PBMC,0.056 µM
O=c1[nH]cnc2c1ncn2[C@H]1CC[C@@H](CO)O1,,IIIB,,MT-2,6.5 µM
CC(=O)NC1CN=C(SSC2=NCC(NC(C)=O)S2)S1,,RF,,CEM + CEM-SS,37.6 µM
CC(C)CNC(=O)[C@H](OCc1ccccc1)[C@H](O)[C@@H](O)[C@@H](OCc1ccccc1)C(=O)N[C@H]1c2ccccc2C[C@H]1O,,,,MT-4,>100 µM
Nc1ccc(S(N)(=O)=O)cc1SSc1cc(S(N)(=O)=O)ccc1N,,RF,,CEM + CEM-SS,27.1 µM
CNC(=O)[C@H](OCc1ccccc1)[C@H](O)[C@@H](O)[C@@H](OCc1ccccc1)C(=O)N[C@H]1c2ccccc2C[C@H]1O,,,,MT-4,2 µM
O=C(Nc1cc(C(F)(F)F)cc(C(F)(F)F)c1)c1ccccc1SSc1ccccc1C(=O)Nc1cc(C(F)(F)F)cc(C(F)(F)F)c1,,,,CEM,>3.6 µM
Nc1nc2c(ncn2[C@H]2C=C[C@@H](CO)C2)c(=O)[nH]1,,,,CEM,0.15 µg/mL
CCC(=O)c1ccc(NC(=O)c2ccccc2SSc2ccccc2C(=O)Nc2ccc(C(=O)CC)cc2)cc1,,,,CEM,16 µM
CC(C)=CCN1Cc2cccc3[nH]c(=S)n(c23)C[C@@H]1C,,IIIB,,CEM + CEM-SS,0.1 µM
CNC(=O)[C@@H](NC(=O)[C@H](OCc1ccccc1)[C@H](O)[C@@H](O)[C@@H](OCc1ccccc1)C(=O)N[C@H](C(=O)NC)c1ccccc1)c1ccccc1,,,,MT-4,1 µM
Nc1nc(N)c2ncn([C@H]3C=C[C@@H](CO)C3)c2n1,,,,MT-2,4.7 µg/mL
CNC(=O)C(NC(=O)[C@H](OCc1ccc(-c2cccc([N+](=O)[O-])c2)cc1)C(O)C(O)[C@@H](OCc1ccc(-c2cccc([N+](=O)[O-])c2)cc1)C(=O)NC(C(=O)NC)C(C)C)C(C)C,,,,MT-4,0.4 µM
Cc1cn([C@H]2C[C@H](N=[N+]=[N-])[C@@H](CO)O2)c(=O)[nH]c1=O,,CLADE A,clinical isolate,PBMC,0.008 µM
Cc1cn([C@@H]2O[C@H](CO[Si](C)(C)C(C)(C)C)C3(OS(=O)(=O)C=C3N)[C@H]2O[Si](C)(C)C(C)(C)C)c(=O)n(C)c1=O,RT-D138K,IIIB,,CEM,>16 µM
Cc1c(O)cccc1C(=O)N[C@@H](CSc1ccccc1)[C@H](O)CN1C[C@H]2CCCC[C@H]2C[C@H]1C(=O)NC(C)(C)C,,IIIB,,MT-2,0.006 µM

The first 4 rows once more:

SMILES | changes | strain | conditions | cells | result
CC[C@H](C)[C@H](NC(=O)[C@H](OCc1ccccc1)[C@H](O)[C@@H](O)[C@@H](OCc1ccccc1)C(=O)N[C@H](C(=O)NC)[C@@H](C)CC)C(=O)NC |  |  |  | MT-4 | 1 µM
NC(=O)c1ncn([C@@H]2O[C@H](CO)[C@@H](O)[C@H]2O)c1N |  | IIIB |  | MT-2 | 500 µM
CCSCCCCCCCCCCCC(=O)O |  | IIIB |  | CEM + CEM-SS | 9.37 ± 7.1 µM
O=C(NC1c2ccccc2CC1O)[C@H](OCc1ccccc1)[C@H](O)[C@@H](O)[C@@H](OCc1ccccc1)C(=O)N[C@H]1c2ccccc2CC1O |  |  |  | MT-4 | 0.05 µM